Zika virus NS2B-NS3: effect of single substitutions on growth in cell culture

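Libraries of single mutants were passaged as virus pools on Huh-7.5 cells. The effect is the change in frequency of a mutant, normalised to wild type, as a mean of three replicate libraries (two for positions 207-308).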

Chain scanned (Zika virus MR766; NS2B from position 2 to 131, then the start of NS3):
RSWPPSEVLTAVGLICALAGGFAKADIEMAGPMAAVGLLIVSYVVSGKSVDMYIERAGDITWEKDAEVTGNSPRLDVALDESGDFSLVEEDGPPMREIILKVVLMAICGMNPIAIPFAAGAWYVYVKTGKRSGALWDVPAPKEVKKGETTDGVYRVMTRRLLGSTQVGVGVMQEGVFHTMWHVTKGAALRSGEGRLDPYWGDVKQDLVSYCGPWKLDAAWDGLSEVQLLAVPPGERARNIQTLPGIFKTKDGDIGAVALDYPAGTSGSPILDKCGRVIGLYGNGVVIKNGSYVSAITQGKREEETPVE

Scale: log2 effect, wild type = 0; the lower, the more harmful to the virus.
A change reads original residue, position, new residue.
This list holds changes to valine only.
The authors count -1 or higher as tolerated. Position 1 is the last residue of NS2A.
Positions 1-103, 104-206 and 207-308 were made and measured as separate libraries.
Six mutants with high scores were retested singly and none clearly outgrew wild type, so positive values are not proof of better growth.

With R1V the assay gave -8.35.
With S2V the assay gave -7.55.
With W3V the assay gave -7.19.
With P4V the assay gave -6.29.
With P5V the assay gave -6.29.
With S6V the assay gave -4.02.
With E7V the assay gave -7.39.
With L9V the assay gave -2.79.
With T10V the assay gave -1.93.
With A11V the assay gave -3.41.
With G13V the assay gave -5.92.
With L14V the assay gave -0.24.
With I15V the assay gave -0.32.
With C16V the assay gave -6.58.
With A17V the assay gave -2.35.
With L18V the assay gave -1.72.
With A19V the assay gave -3.84.
With G20V the assay gave -6.98.
With G21V the assay gave -5.16.
With F22V the assay gave -0.15.
With A23V the assay gave -0.33.
With K24V the assay gave -6.45.
With A25V the assay gave 1.16.
With D26V the assay gave -6.30.
With I27V the assay gave -1.05.
With E28V the assay gave -2.35.
With M29V the assay gave -1.02.
With A30V the assay gave -0.69.
With G31V the assay gave -4.34.
With P32V the assay gave -6.28.
With M33V the assay gave -0.53.
With A34V the assay gave -3.80.
With A35V the assay gave -1.10.
With G37V the assay gave -4.78.
With L38V the assay gave -2.42.
With L39V the assay gave -1.86.
With I40V the assay gave 0.70.
With S42V the assay gave -6.61.
With Y43V the assay gave -6.48.
With S46V the assay gave -1.92.
With G47V the assay gave -4.38.
With K48V the assay gave -5.16.
With S49V the assay gave -3.19.
With D51V the assay gave -5.79.

From the data files of Ni et al. 2025, doi:10.1038/s41467-025-63602-z.